HIV-1 NL4-3 point mutations in Vpu: replication capacity

Data from the supplement of Al-Mawsawi et al. 2014, doi:10.1186/s12977-014-0124-6.

Protein: Vpu of HIV-1 NL4-3, numbered from its first residue. The source prints no sequence; the chain below is taken from UniProt P05923, a closely related isolate, with 3 of its residues set to the source's, and fits the source at the 74 positions it covers.
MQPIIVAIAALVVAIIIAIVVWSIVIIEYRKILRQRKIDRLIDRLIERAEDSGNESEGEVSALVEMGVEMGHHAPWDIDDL
"Other frame" gives the effect on an overlapping gene as the source lists it; other overlaps (genes, RNA elements) are not shown.

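Seven fragments of pNL4-3 were mutated by error-prone PCR, and each virus pool was passaged in CEM T cells. The RC index is the frequency of a change after passage round 2 divided by its frequency in the plasmid library.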

RC index: lower means poorer replication; rough cut-offs are 0.1 (lethal) and 0.2 (tolerated). A change reads original residue, position, new residue. Input reads are the counts in the plasmid library. An index over 1, which the authors read as above wild type, was rare (1.9% of all changes in the genome).

mutation | base | other frame | input reads | replication capacity index
M1K | T6062A | none | 280 | 0.0371
Q2H | A6066T | none | 249 | 0.0667
P3H | C6068A | none | 341 | 0.103
P3L | C6068T | none | 202 | 0.288
I4K | T6071A | none | 402 | 0.0671
I4T | T6071C | none | 165 | 0.0629
I5V | A6073G | none | 241 | 0.904
I5T | T6074C | none | 181 | 0.0918
I5M | A6075G | none | 242 | 0.0515
V6L | G6076C | none | 87 | 0.0716
A7P | G6079C | none | 80 | 0.104
A7S | G6079T | none | 135 | 0.0923
A7V | C6080T | none | 276 | 0.165
I8V | A6082G | none | 328 | 0.0190
I8L | A6082T | none | 425 | 0.703
I8K | T6083A | none | 263 | 0.0710
A10P | G6088C | none | 95 | 0.0874
A10G | C6089G | none | 30 | 0.138
L11I | T6091A | none | 258 | 0.105
L11V | T6091G | none | 52 | 0.120
V12L | G6094C | none | 86 | 0.0724
V12L | G6094T | none | 68 | 0.183
V12A | T6095C | none | 229 | 2.06
V13I | G6097A | none | 247 | 0.345
V13L | G6097C | none | 82 | 0.0760
V13L | G6097T | none | 162 | 0.0769
A14T | G6100A | none | 416 | 0.175
A14P | G6100C | none | 137 | 0.773
A14G | C6101G | none | 39 | 0.479
I15L | A6103T | none | 402 | 0.150
I15T | T6104C | none | 258 | 0.539
I15M | A6105G | none | 123 | 0.0506
I16V | A6106G | none | 256 | 0.0973
I16T | T6107C | none | 93 | 0.179
I16M | A6108G | none | 116 | 0.0895
I17K | T6110A | none | 210 | 0.208
I17T | T6110C | none | 252 | 0.115
A18S | G6112T | none | 203 | 0.164
I19L | A6115T | none | 367 | 0.0396
I19K | T6116A | none | 353 | 0.923
I19T | T6116C | none | 163 | 0.0764
I19M | A6117G | none | 242 | 0.0944
V20L | G6118C | none | 150 | 0.0415
V21E | T6122A | none | 327 | 0.0381
W22L | G6125T | none | 141 | 0.206
W22C | G6126C | none | 112 | 0.0371
W22C | G6126T | none | 39 | 0.639
S23T | T6127A | none | 142 | 0.0292
S23F | C6128T | none | 89 | 0.770
I24L | A6130T | none | 389 | 0.368
I24K | T6131A | none | 197 | 0.0527
I24M | A6132G | none | 217 | 0.364
V25E | T6134A | none | 264 | 3.21
I26T | T6137C | none | 185 | 0.146
I27L | A6139T | none | 322 | 0.857
I27K | T6140A | none | 186 | 0.134
E28D | A6144T | none | 709 | 0.0363
Y29H | T6145C | none | 277 | 0.107
Y29C | A6146G | none | 442 | 0.0359
Y29F | A6146T | none | 599 | 0.0397
R30S | G6150T | none | 58 | 0.478
K31E | A6151G | none | 758 | 0.528
K31R | A6152G | none | 754 | 0.0552
I32L | A6154T | none | 886 | 4.84
I32T | T6155C | none | 356 | 0.0556
L33I | T6157A | none | 340 | 0.0350
L33S | T6158C | none | 421 | 0.0659
R34S | A6162C | none | 39 | 0.102
Q35L | A6164T | none | 673 | 0.0942
Q35H | A6165T | none | 558 | 0.0497
R36G | A6166G | none | 386 | 0.190
K37R | A6170G | none | 326 | 0.0405
I38V | A6172G | none | 184 | 0.0308
I38T | T6173C | none | 202 | 0.0840
D39N | G6175A | none | 131 | 0.389
D39Y | G6175T | none | 159 | 0.0593
L41S | T6182C | none | 172 | 0.285
I42F | A6184T | none | 294 | 0.276
I42N | T6185A | none | 230 | 0.0820
D43V | A6188T | none | 395 | 0.607
R44I | G6191T | none | 184 | 0.113
I46L | A6196T | none | 380 | 0.0149
R48G | A6202G | none | 102 | 0.185
R48K | G6203A | none | 194 | 0.525
A49S | G6205T | none | 173 | 0.0654
E50D | A6210T | none | 318 | 0.0475
D51N | G6211A | none | 100 | 0.698
D51H | G6211C | none | 44 | 0.129
D51V | A6212T | none | 141 | 0.120
S52C | A6214T | none | 377 | 0.0350
S52R | T6216A | none | 350 | 0.0539
G53S | G6217A | none | 185 | 0.235
G53R | G6217C | none | 103 | 0.0366
G53D | G6218A | none | 475 | 0.199
N54D | A6220G | none | 350 | 0.0593
S56G | A6226G | Env silent | 314 | 0.0661
E57K | G6229A | Env silent | 161 | 0.633
S61P | T6241C | Env silent | 170 | 0.0777
L63P | T6248C | Env silent | 276 | 0.103
V68M | G6262A | Env silent | 403 | 0.117
V68L | G6262T | Env silent | 79 | 0.0478
P75S | C6283T | Env silent | 189 | 0.0867
D77Y | G6289T | Env silent | 45 | 0.885
L81M | C6301A | Env silent | 380 | 0.129

A selection of 5 entries from above:

{"mutation": "A7S", "base": "G6079T", "other frame": "none", "input reads": "135", "replication capacity index": 0.0923}
{"mutation": "I5M", "base": "A6075G", "other frame": "none", "input reads": "242", "replication capacity index": 0.0515}
{"mutation": "S23T", "base": "T6127A", "other frame": "none", "input reads": "142", "replication capacity index": 0.0292}
{"mutation": "A18S", "base": "G6112T", "other frame": "none", "input reads": "203", "replication capacity index": 0.164}
{"mutation": "P75S", "base": "C6283T", "other frame": "Env silent", "input reads": "189", "replication capacity index": 0.0867}

Since each clone held several changes (about five per kb), neutral changes can read low. Base changes are numbered along pNL4-3.